PubChem BioAssay AID504761 – Drosophila RNAi Screening Center – 2011
In all, the deposit lists about 22,000 reagents; shown is a random part of those with a known target gene and a result. Of all reagents, 116 (0.52%) were called active. 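Calls depend on retest data that are not deposited; infection was ranked per plate without normalising between plates; the unit of the infection score is not given.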 Raw values vary from plate to plate and are shown uncorrected. Unmarked entries are inactive. The numbers tell different reagents against one gene apart. The record does not give: the amount of reagent, the time to read-out.

- Assay: 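Fly genes whose silencing reduces dengue virus type 2 infection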 (primary screen)
- Cells: D.Mel-2 cells from Drosophila
- Reagents: long dsRNA against Drosophila genes
- Treatment: infection with dengue virus type 2; dose and infection time not stated
- Measured: 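Per well on two replicate plates, imaging gave the percent of cells positive for viral envelope protein, ranked by infection, and a nuclear count of cells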
- Reading the numbers: infection score: higher = more virus-infected cells; cell count: higher = more cells in the well
- Hit rule: 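Very low infection ranking in both replicate wells (chance probability at most 0.065), then a retest showing infection dropped 1.5-fold or more at p below 0.05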
- Calls: active = confirmed: knock-down lowers infection; inactive = not picked or not confirmed

| gene knocked down | dsRNA no. | infection score, replicate 1 | infection score, replicate 2 | cell count, replicate 1 | cell count, replicate 2 |
| --- | --- | --- | --- | --- | --- |
| CCDC151 (Coiled-coil domain containing protein 151) | 1 | 2.81 | 6.34 | 6333 | 6039 |
| CCDC151 (Coiled-coil domain containing protein 151) | 2 | 3.35 | 3.36 | 6457 | 6073 |
| CstF64 (Cleavage stimulation factor 64 kD subunit) | 1 | 0.93 | 6.59 | 429 | 6572 |
| CstF64 (Cleavage stimulation factor 64 kD subunit) | 2 | 6.47 | – | 896 | 358 |
| Sec5 (Secretory 5) | 1 | 1.93 | 0.86 | 5847 | 6527 |
| Impbeta11 (Importin beta11) | 1 | 4.22 | 9.13 | 6724 | 7195 |
| VhaM9.7-d (Vacuolar H[+] ATPase M9.7 subunit d) | 1 | 7.36 | 3.28 | 6281 | 6821 |
| CG9973 (retired record) | 1 | 1.31 | 4.41 | 5636 | 5447 |
| CG9973 (retired record) | 2 | 4.46 | 4.65 | 6856 | 6446 |
| CG14280 | 1 | 2.71 | 2.8 | 6558 | 6284 |
| Sema1b (Semaphorin 1b) | 1 | 19 | 6.76 | 6200 | 1080 |
| Sema1b (Semaphorin 1b) | 2 | 23.7 | 19.8 | 5935 | 6393 |
| CG6834 | 1 | 11.8 | 4.72 | 5855 | 6444 |
| CG6834 | 2 | – | 1.83 | 270 | 601 |
| eIF3b (eukaryotic translation initiation factor 3 subunit b) | 1 | 11.7 | 18.8 | 2300 | 2189 |
| CG11529 | 1 | 0.51 | 1.62 | 6647 | 6341 |
| ph-d (polyhomeotic distal) | 1 | 2.84 | 6.4 | 5917 | 6496 |
| ph-d (polyhomeotic distal) | 2 | 15 | 13.7 | 6238 | 6096 |
| CG32117 | 1 | 2.55 | 11.6 | 5718 | 5212 |
| halo | 1 | 1.39 | 1.4 | 6955 | 6780 |
| halo | 2 | 4.66 | 17.6 | 6462 | 6678 |
| Vha68-2 (Vacuolar H[+] ATPase 68 kDa subunit 2) | 1 | 19.2 | 13.6 | 5702 | 4886 |
| Vha68-2 (Vacuolar H[+] ATPase 68 kDa subunit 2) | 2 | 12.6 | 9.96 | 5501 | 5229 |
| wntD (wnt inhibitor of Dorsal) | 1 | 3.54 | 7.5 | 6862 | 6548 |
| wntD (wnt inhibitor of Dorsal) | 2 | 14.2 | 16.5 | 5356 | 5391 |
| mthl1 (methuselah-like 1) | 1 | 1.04 | 1.51 | 6746 | 6886 |
| CG15395 | 1 | 1.17 | 1.79 | 6658 | 6551 |
| Lcp1Psi (Larval cuticle protein 1 pseudogene) | 1 | 0.65 | 0.16 | 6186 | 6208 |
| Lcp1Psi (Larval cuticle protein 1 pseudogene) | 2 | 21 | 15.1 | 5105 | 4918 |
| Cyp6d5 (Cytochrome P450 6d5) | 1 | 19.9 | 17 | 5763 | 5600 |
| Cyp6d5 (Cytochrome P450 6d5) | 2 | 6.48 | 1.73 | 6548 | 5961 |
| CG30440 | 1 | 7.36 | 4.87 | 6240 | 5934 |
| CG30440 | 2 | 1.81 | 8.61 | 6340 | 6422 |
| CG30440 | 3 | 2.36 | 24.9 | 6491 | 6122 |
| Smn (survival motor neuron) | 1 | 0.38 | 5.28 | 6755 | 7312 |
| CG12769 | 1 | 5.22 | 2.85 | 6344 | 6237 |
| ebd2 (earthbound 2) | 1 | 25.6 | 13.9 | 6442 | 6282 |
| ebd2 (earthbound 2) | 2 | 4.4 | 10.9 | 704 | 1480 |

Part of the list above, reduced to “cell count, replicate 1”:
wntD (wnt inhibitor of Dorsal) #2 = 5356
mthl1 (methuselah-like 1) = 6746
CG15395 = 6658
Lcp1Psi (Larval cuticle protein 1 pseudogene) #1 = 6186
Lcp1Psi (Larval cuticle protein 1 pseudogene) #2 = 5105
Cyp6d5 (Cytochrome P450 6d5) #1 = 5763
Cyp6d5 (Cytochrome P450 6d5) #2 = 6548
CG30440 #1 = 6240
CG30440 #2 = 6340
CG30440 #3 = 6491
Smn (survival motor neuron) = 6755
CG12769 = 6344

The list goes on:
| gene knocked down | dsRNA no. | infection score, replicate 1 | infection score, replicate 2 | cell count, replicate 1 | cell count, replicate 2 |
| --- | --- | --- | --- | --- | --- |
| Torsin | 1 | 11.1 | 41.9 | 5497 | 5101 |
| CG6843 | 1 | 6.98 | 3.62 | 6600 | 6942 |
| CG6843 | 2 | 16.9 | 19.1 | 6568 | 5999 |
| ple (pale) | 1 | 4.41 | 4.05 | 5621 | 5284 |
| snf (sans fille) | 1 | 5.25 | 9.36 | 4192 | 4464 |
| snf (sans fille) | 2 | 9.03 | 8.14 | 6083 | 5948 |
| CG17803 | 1 | 7.96 | 7.72 | 6519 | 6685 |
| CG17803 | 2 | 0.66 | 8.15 | 6236 | 6230 |
| Wnt5 (Wnt oncogene analog 5) | 1 | 3.51 | 8.74 | 6208 | 6541 |
| Wnt5 (Wnt oncogene analog 5) | 2 | 15.8 | – | 5060 | 387 |
| CR31292 (pseudo) | 1 | 4.43 | 1.15 | 5920 | 6163 |
| Septin2 (Septin 2) | 1 | 6.35 | 9.76 | 6221 | 6934 |
| CG10163 | 1 | 2.31 | 6.25 | 5851 | 5810 |
| Vha36-2 (Vacuolar H[+] ATPase 36kD subunit 2) | 1 | 13.7 | 16.6 | 3878 | 5599 |
| Vha36-2 (Vacuolar H[+] ATPase 36kD subunit 2) | 2 | 15.2 | – | 1615 | 309 |
| Or94b (Odorant receptor 94b) | 1 | 1.25 | 4.98 | 6263 | 6843 |
| Or94b (Odorant receptor 94b) | 2 | 8.82 | 9.61 | 6893 | 6786 |
| CG13297 | 1 | 0.88 | 1.84 | 5574 | 6249 |
| I-3 (Inhibitor-3) | 1 | 4.97 | 1.2 | 6298 | 5982 |
| CG5877 | 1 | 9.52 | 0.54 | 6625 | 6863 |
| CG5877 | 2 | 10.1 | 10.7 | 5039 | 4581 |
| CG17217 | 1 | 2.88 | 1.22 | 6255 | 6418 |
| AlaRS-m (Alanyl-tRNA synthetase, mitochondrial) | 1 | 10.2 | 4.12 | 6491 | 6704 |
| AlaRS-m (Alanyl-tRNA synthetase, mitochondrial) | 2 | 2.44 | 18.2 | 532 | 6226 |
| CG17754 | 1 | 1.89 | 1.81 | 6769 | 6756 |
| CG45105 | 1 | 5.02 | 6.96 | 5195 | 5447 |
| CG45105 | 2 | 1.73 | 2.66 | 6604 | 6550 |
| Pc (Polycomb) | 1 | 3.85 | 5.11 | 6933 | 6085 |
| BicD (Bicaudal D) | 1 | 11.6 | 43.2 | 6472 | 4907 |
| Mipp1 (Multiple inositol polyphosphate phosphatase 1) | 1 | 6.75 | 6.75 | 6618 | 6577 |
| CG32240 | 1 | 2.23 | 2.67 | 6815 | 5879 |
| CG14676 | 1 | 1.91 | 4.24 | 6713 | 6342 |
| oxt (peptide O-xylosyltransferase) | 1 | 3.8 | 3.65 | 6999 | 6639 |
| MFS9 (Major Facilitator Superfamily Transporter 9) | 1 | 4.54 | 2.6 | 6298 | 6661 |
| CG12818 | 1 | 10.9 | 18.2 | 6187 | 6130 |
| Tat (Tyrosine aminotransferase) | 1 | 2.04 | 4.84 | 6505 | 6466 |
